Anti-infective test results gathered from many reports (values: NIAID ChemDB through PubChem).

All rows: growth or infection tests; species: Herpes simplex virus 1; method: plaque count; endpoint: EC50

Blank or dashed fields: not listed here.

structure | strain or isolate | cell line | result
Nc1nc(=O)n([C@@H]2O[C@H](CO)[C@@H](O)[C@@H]2F)cc1F | 2931 | VERO | <0.1 µg/mL
O=c1[nH]c(=O)n([C@H]2C[C@H](O)[C@@H](CO)O2)cc1I | P | HFF | 1.05 µg/mL
O=C(O)CP(=O)(O)O | VR-3 | HEL | 65 µM
CSc1nsc(-c2ccccc2)c1C#N | F strain | VERO | >20 µM
Oc1ccc(C(c2ccc(O)cc2)c2ccc(Cl)cc2)cc1 | KOS | VERO | 1.8 µg/mL
Cn1cc(C(=O)NCc2ccc(Cl)cc2)c(=O)c2cc(CN3CCOCC3)ccc21 | 11359 (ACV-resistant) | HFF | 2.9 µM
Nc1nc(=O)n([C@@H]2O[C@H](CO)[C@@H](O)[C@@H]2F)cc1I | 2931 | VERO | <0.01 µg/mL
C/C(=N\NC(=S)N(C)C1CC2CCC1CC2)c1ccccn1 | HF | BHK-21/4 | 0.49 µg/mL
O=c1[nH]c(=O)n([C@@H]2O[C@H](CO)[C@@H](O)[C@@H]2F)cc1I | F-FIAU-C1 | VERO | 8.5 µM
Nc1ccn([C@@H]2O[C@H](CO)[C@@H](O)[C@H]2F)c(=O)n1 | 2931 | VERO | <0.1 µg/mL
Cc1cn([C@@]23C[C@H](O)[C@@H](CO)[C@@H]2C3)c(=O)[nH]c1=O | - | HFF | >20 µg/mL
O=C(O)P(=O)(O)O | Ara-A-resistant | RK-13 | 57 µM
Nc1nc2c(ncn2COCCO)c(=O)[nH]1 | VR/TK- | HEL | 444 µM
COCc1cn([C@@H]2C[C@H](CO)[C@@H](O)C2)c(=O)nc1N | KOS 76 | VERO | 26 µM
CCc1cn([C@H]2C[C@H](O)[C@@H](CO)O2)c(=O)[nH]c1=O | F-ACV-C4 | VERO | >400 µM
NC(N)=NCCC[C@H](NC(=O)[C@H](Cc1c[nH]c2ccccc12)NC(=O)[C@H](Cc1c[nH]c2ccccc12)NC(=O)[C@H](CCCN=C(N)N)NC(=O)[C@H](Cc1c[nH]c2ccccc12)NC(=O)[C@H](Cc1c[nH]c2ccccc12)NC(=O)[C@@H](N)CCCN=C(N)N)C(=O)O | - | VERO | >20 µM
C/C(=N\NC(N)=S)c1ccccn1 | HF | BHK-21/4 | 1.1 µg/mL
O=c1[nH]c(=O)n([C@H]2C[C@H](O)[C@@H](CO)O2)cc1I | 2931 | VERO | <10 µg/mL
Nc1nc2c(ncn2CC[C@H](O)CO)c(=O)[nH]1 | C42 | VERO | 13 µM
CSc1nsc(-c2cccc(Cl)c2)c1C#N | F strain | VERO | >10 µM
O=C(NCCc1ccccc1)C1=Cc2ccncc2CC1 | McKrae | HFF | 54.4 µM
Nc1ncnc2c1ncn2[C@@H]1C[C@H](CO)[C@@H](O)[C@@H]1O | F-FIAC-C3 | VERO | 60 µM
C=C1[C@H](CO)[C@@H](O)C[C@@H]1n1cnc2c(=O)[nH]c(N)nc21 | - | WI-38 | 3 µM
Nc1nc(=O)n([C@@H]2O[C@H](CO)[C@@H](O)[C@@H]2F)cc1I | F | VERO | 0.023 µM
O=C(Cc1ccccc1)NCCCCNC(=O)Cc1ccccc1 | - | - | >20 µg/mL
Nc1nc2c(ncn2/C=C2/CC2(CO)CO)c(=O)[nH]1 | E-377 | HFF | >380 µM
CSc1nsc(-c2ccc(Cl)cc2)c1C#N | F strain | VERO | >5 µM
CCN(CC)CCCOc1c2occc2cc2ccc(=O)oc12 | Clinical isolate | VERO | 24.5 µg/mL
Nc1nc(N)c2ncn(COC(CO)CO)c2n1 | F | VERO | >100 µM
Nc1nc2c(ncn2COCCO)c(=O)[nH]1 | - | VERO | 0.2 µg/mL
Cc1cn([C@@H]2O[C@H](CO)[C@@H](O)[C@@H]2O)c(=O)[nH]c1=O | 2931 | VERO | <1 µg/mL
O=C(NCc1ccc(Cl)cc1)c1cn2c3c(cc(CN4CCOCC4)cc3c1=O)OC(c1cccnc1)C2 | 13231 | HFF | 10.8 µM
CCCCCC(=O)Nc1nc(=O)n([C@@H]2C[C@H](CO)[C@@H](O)C2)cc1COC | McIntyre | A549 | 4.89 µM
Oc1c(Br)cc(C(c2ccc(C(F)(F)F)cc2)c2cc(Br)c(O)c(Br)c2)cc1Br | KOS | VERO | 5.2 µg/mL
COc1nsc(-c2ccccc2)c1C#N | F strain | VERO | >25 µM
CNc1nc(=O)n([C@@H]2C[C@H](CO)[C@@H](O)C2)cc1COC | McIntyre | A549 | >1024 µM
Nc1nc2c(ncn2CCCCO)c(=O)[nH]1 | C42 | SIRC | 1.2 µM
COc1ccccc1CNC(=O)C1=Cc2ccncc2CC1 | McKrae | HFF | 15.5 µM
Oc1ccc(C(c2ccc(C(F)(F)F)cc2)c2ccc(O)c(Cl)c2)cc1Cl | KOS | VERO | 4.4 µg/mL
O=c1[nH]c(=O)n([C@@H]2O[C@H](CO)[C@@H](O)[C@@H]2F)cc1Br | 2931 | VERO | <1 µg/mL
COCc1cn([C@@H]2C[C@H](CO)[C@@H](O)C2)c(=O)nc1N | McIntyre | A549 | 6.69 µM
O=c1ccn(N2C[C@H](CO)[C@H]2CO)c(=O)[nH]1 | - | VERO | >10 µg/mL
COc1ccc(-c2snc(SC)c2C#N)cc1 | F strain | VERO | >10 µM
Nc1nc(=O)n([C@@H]2O[C@H](CO)[C@@H](O)[C@@H]2O)cc1I | 2931 | VERO | <1 µg/mL
CC1(C)C=C2[C@H]3CC[C@@H]4[C@@]5(C)CCC(=O)C(C)(C)[C@@H]5CC[C@@]4(C)[C@]3(C)CC[C@@]2(C(=O)O)CC1 | 7401H | VERO | 3.9 µg/mL
COCc1cn([C@@H]2C[C@H](CO)[C@@H](O)C2)c(=O)nc1NC(C)=O | McIntyre | A549 | 4.79 µM
C/C(=N\NC(=S)N(C)C1CCCCC1)c1ccccn1 | HF | BHK-21/4 | 0.22 µg/mL
Nc1nc(=O)n([C@H]2C[C@H](O)[C@@H](CO)O2)cc1I | 2931 | VERO | <1 µg/mL

3 of the rows above, restated:

structure,strain or isolate,cell line,result
O=c1[nH]c(=O)n([C@@H]2O[C@H](CO)[C@@H](O)[C@@H]2F)cc1Br,2931,VERO,<1 µg/mL
O=c1ccn(N2C[C@H](CO)[C@H]2CO)c(=O)[nH]1,-,VERO,>10 µg/mL
Nc1ccn([C@@H]2O[C@H](CO)[C@@H](O)[C@H]2F)c(=O)n1,2931,VERO,<0.1 µg/mL

ECn is the concentration giving n% inhibition of infection, replication or growth. Rows are shuffled and stem from different studies.